Anti-infective test results gathered from many reports (values: NIAID ChemDB through PubChem).

Common to all: tests in culture; species: HIV-1; cell line: MT-4; read-out: EC50

Two numbers with a dash give a range or band.

structure	strain or isolate	changes	read by	conditions	result
Nc1ccn([C@@H]2CO[C@@H](CO)S2)c(=O)n1	-	-	-	-	>100 µg/mL
[N-]=[N+]=N[C@H]1C[C@@H](N2C(=O)NC(=O)/C2=C/c2ccccc2)O[C@@H]1CO	IIIB	-	ELISA	-	>10 µM
CCN1C[C@H](C)n2c(c(O)c3c(=O)n(Cc4ccc(F)c(Cl)c4)nc(C(=O)NC)c32)C1=O	IIIB	-	-	-	0.003 µM
O=C1CSC(c2c(Cl)cccc2Cl)N1Cc1ccco1	IIIB	-	cytopathic effect	-	0.204 µM
O=c1nc2c(cn1[C@@H]1O[C@H](CO)[C@@H](O)[C@H]1O)CON2	IIIB	-	-	-	>300 µM
CCCc1c(Cc2ccccc2)n(COC/C(C)=C/c2ccccc2)c(=O)[nH]c1=O	IIIB	-	cytopathic effect / MTT	-	0.04 µM
O=c1nc2c(cn1[C@H]1C[C@H](O)[C@@H](CO)O1)CCON2	IIIB	-	-	-	>300 µM
CCN1C[C@H](C)N2C(=C(O)C3C(=O)N4Cc5ccc(F)cc5OCCCC[C@@H](C)S(=O)(=O)N(C)C(=N4)C32)C1=O	LAII(IIIB)	-	-	-	379 µM
[N-]=[N+]=N[C@H]1C[C@H](n2cc(CCON)c(=O)[nH]c2=O)O[C@@H]1CO	IIIB	-	-	-	>300 µM
CCc1c(Cc2cc(C)cc(C)c2)n(COCC#Cc2cccc(C=O)c2)c(=O)[nH]c1=O	IIIB	Y181C	MTT	-	3.6 µM
CC(C)CN(C[C@@H](O)[C@H](Cc1ccccc1)NC(=O)O[C@H]1C2COC3OCC1C3C2)S(=O)(=O)c1ccc2nc(NC3CC3)sc2c1	NL4-3	-	p24	-	0.00017 µM
Nc1ncnc2c1ncn2[C@@H]1CO[C@@H](CO)S1	-	-	-	-	>100 µg/mL
O=C1CN(C(=O)c2cc(-c3cc(Br)cc(OC(F)(F)F)c3)n(-c3ccncc3)n2)CN1	NL4-3	K103N/Y181C	luminescence	-	0.031 µM
N#CC1=CC2C(c3ccccc3N2CC(=O)O)N(c2ccc([N+](=O)[O-])cc2)C1=O	LAI	-	cytopathic effect / MTT	-	1–32 µM
CCN1C[C@H](C)N2C(=C(O)C3C(=O)N4Cc5ccc(F)cc5OCCCCCNC(=O)C(=N4)C32)C1=O	LAII(IIIB)	-	-	-	2.61 µM
C=CCOCn1c(CC2CCCc3ccccc32)c(CC)c(=O)[nH]c1=O	N119 RT-Y181C NNRTI-resistant	RT-Y181C	cytopathic effect / MTT	-	>100 µM
CCc1c(Cc2cc(C)cc(C)c2)n(COCC#Cc2ccc(O[Si](c3ccccc3)(c3ccccc3)C(C)(C)C)cc2)c(=O)[nH]c1=O	IIIB	K103N + Y181C	MTT	-	>100 µM
CCCc1c(Cc2ccccc2)n(COCC2CC=CCC2)c(=O)[nH]c1=O	IIIB	-	cytopathic effect / MTT	-	0.3 µM
CSCSc1nc(Cc2c(F)cccc2F)c(C)c(=O)[nH]1	IIIB	RT-Y181C	cytopathic effect / MTT	-	20 µM
Cc1cn([C@@H]2CO[C@@H](CO)S2)c(=O)[nH]c1=O	-	-	-	-	>100 µg/mL
CCOC(=O)C1=C2NC(=O)N([C@H]3C[C@H](N=[N+]=[N-])[C@@H](CO)O3)C=C2COC1=O	IIIB	-	-	-	>300 µM
CCOC(=O)c1cc2c3cccc(N)c3c3ccc(OC)cc3n2c1C	-	-	cytopathic effect / MTT	-	>200 µM
c1ccc(C2SCc3nc4ccccc4n32)cc1	IIIB	-	cytopathic effect	-	0.35 µM
COc1ccc2c(c1)c1cc(C(C)=O)c(C)n1c1cccc(N)c21	-	-	cytopathic effect / MTT	-	>40 µM
CCCc1c(Cc2cc(C)cc(C)c2)n(COC/C(C)=C/c2ccccc2)c(=O)[nH]c1=O	NNRTI-resistant (RT Y181C) N119	RT-Y181C	cytopathic effect / MTT	-	21 µM
CCN1CCC[C@@H]1CNc1cc(S(=O)(=O)N(CC(C)C)C[C@@H](O)[C@H](Cc2ccccc2)NC(=O)O[C@H]2CO[C@H]3OCC[C@H]32)ccc1N	IIIB WT	-	GFP	-	0.0661 µM
CCc1c(CC2CCCc3ccccc32)n(COCC=C(C)C)c(=O)[nH]c1=O	IIIB	-	cytopathic effect / MTT	-	4 µM
CC(C)CN(C[C@@H](O)[C@H](Cc1ccccc1)NC(=O)O[C@H]1CO[C@H]2OCC[C@H]21)S(=O)(=O)c1ccc(N)c(NCCCO)c1	IIIB WT	-	GFP	-	0.372 µM
CCN1C[C@H](C)N2C(=C(O)C3C(=O)N4Cc5ccc(F)cc5OCCCCS(=O)(=O)N(CC)C(=N4)C32)C1=O	LAII(IIIB)	-	-	-	2.2 µM
CCOCn1c(C(O)C=C(C)C)c(CC)c(=O)[nH]c1=O	HTLV-IIIB WT	-	cytopathic effect / MTT	-	>100 µM
CCCc1c(Cc2cc(C)cc(C)c2)n(COC2C=CCCC2)c(=O)[nH]c1=O	NNRTI-resistant (RT K103N Y181C) A17	RT-K103N Y181C	cytopathic effect / MTT	-	>100 µM
CCOC(=O)c1cc2c3cccc(OC)c3c3ccc(N)cc3n2c1C	-	-	cytopathic effect / MTT	-	60 µM
Nc1nc(=O)n([C@@H]2CO[C@@H](CO)S2)cc1F	-	-	-	-	>100 µg/mL
CC(C)CN(C[C@@H](O)[C@H](Cc1ccccc1)NC(=O)O[C@H]1CO[C@H]2OCC[C@H]21)S(=O)(=O)c1ccc(N)c(N(C)c2ccccc2)c1	IIIB WT	-	GFP	-	0.0871 µM
CCC(=O)c1ccc(F)c([C@@H]2C[C@@H]2NC(=O)Nc2ccc(Cl)cn2)c1O	IIIB	-	cytopathic effect / XTT	-	0.029 µM
CCOCn1c(C(=O)C2=CCCCC2)c(CC)c(=O)[nH]c1=O	IIIB WT	-	cytopathic effect / MTT	-	3.1 µM
CCc1c(Cc2cc(C)cc(C)c2)n(COCC#Cc2ccc(O)cc2)c(=O)[nH]c1=O	IIIB	EFV-resistant (K103R V179D P225H)	MTT	-	20 µM
Cc1nnc(C(=O)NC(C)(C)c2nc(C(=O)NCc3ccc(F)cc3)c(O)c(=O)n2C)o1	IIIB	-	-	-	0.01 µM
O=C1CSC(c2c(F)cccc2Cl)N1Cc1ccco1	IIIB	-	cytopathic effect	-	0.576 µM
c1ccc(COC2C3COC(O3)C(OCc3ccccc3)C2OCc2ccccc2)cc1	-	-	MTT	-	0.05 µg/mL
CSCSc1nc(Cc2c(F)cccc2F)cc(=O)[nH]1	IIIB	RT-Y181C	cytopathic effect / MTT	-	54 µM
COc1ccc(-c2nnsc2SCC(=O)Nc2ccccc2F)cc1	IIIB	-	MTT	-	>333 µM
CCN1C[C@H](C)N2C(=C(O)C3C(=O)N4Cc5ccc(Cl)cc5OCCCCCNC(=O)C(=N4)C32)C1=O	LAII(IIIB)	-	-	-	17.36 µM
CCc1ccccc1ONc1cc(S(=O)(=O)N(CC(C)C)C[C@@H](O)[C@H](Cc2ccccc2)NC(=O)O[C@H]2CO[C@H]3OCC[C@H]32)ccc1N	IIIB WT	-	GFP	-	0.00457 µM
CC=CC(O)c1c(CC)c(=O)[nH]c(=O)n1COCC	IIIB WT	-	cytopathic effect / MTT	-	>100 µM
CCc1c(Cc2cc(C)cc(C)c2)n(COCC#Cc2ccc(N)cc2)c(=O)[nH]c1=O	IIIB	WT	MTT	-	0.007 µM
CC(C)CN(C[C@@H](O)[C@H](Cc1ccccc1)NC(=O)O[C@H]1CO[C@H]2OCC[C@H]21)S(=O)(=O)c1ccc(N)c(NCCN2CCCC2)c1	IIIB WT	-	GFP	-	0.0692 µM
N#CC1=CC2C(c3ccccc3N2CCN2CCCCC2)N(c2ccc([N+](=O)[O-])cc2)C1=O	LAI	-	cytopathic effect / MTT	-	<1 µM
CC(C)CN(C[C@@H](O)[C@H](Cc1ccccc1)NC(=O)O[C@H]1CO[C@H]2OCC[C@H]21)S(=O)(=O)c1ccc2c(c1)OCO2	NL4-3	-	p24	-	0.0003 µM
N#Cc1cc2[nH]c3ccccc3c2n(-c2ccc([N+](=O)[O-])cc2)c1=O	E	RT-F227C	cytopathic effect / MTT	-	1.99 µM
CCC(=O)c1ccc(F)c([C@H]2C[C@H]2NC(=O)Nc2ccc(C#N)cn2)c1O	IIIB	RT-L100I	cytopathic effect / XTT	-	0.064 µM
COC1CCN(CCNc2cc(S(=O)(=O)N(CC(C)C)C[C@@H](O)[C@H](Cc3ccccc3)NC(=O)O[C@H]3CO[C@H]4OCC[C@H]43)ccc2N)CC1	IIIB WT	-	GFP	-	0.0603 µM
CC(C)CN(C[C@@H](O)[C@H](Cc1ccc(F)cc1)NC(=O)O[C@H]1C2COC3OCC1C3C2)S(=O)(=O)c1ccc2nc(NC3CC3)sc2c1	NL4-3	-	p24	-	0.00005 µM
CCc1c(Cc2cc(C)cc(C)c2)n(COC2C=CCCC2)c(=O)[nH]c1=O	NNRTI-resistant (RT Y181C) N119	RT-Y181C	cytopathic effect / MTT	-	>100 µM
CC(=O)N(C)c1nc(C(=O)NCc2ccc(F)cc2)c(O)c2ncccc12	-	-	p24	50% human serum	<0.612 µM
O=C1CN(C(=O)c2cc(-c3cc(F)cc(OC(F)F)c3)n(-c3ccnc(Cl)c3)n2)CCN1	NL4-3	K103N/Y181C	luminescence	-	1.138 µM
CCN1C[C@H](C)N2C(=C(O)C3C(=O)N4Cc5ccc(F)cc5OC/C=C/CCCS(=O)(=O)N(C)C(=N4)C32)C1=O	LAII(IIIB)	-	-	-	2.54 µM
COc1cccc(-c2nc(-c3ccc(N4C(=O)C=CC5C4c4ccccc4N5C)cc3)no2)c1	LAI	-	cytopathic effect / MTT	-	>32 µM
CC(=O)c1c(Br)c2c3ccccc3c3ccccc3n2c1C	-	-	cytopathic effect / MTT	-	>182 µM
Nc1ccn([C@H]2CC[C@@H](CO)O2)c(=O)n1	Clinical isolate	-	MTT	-	1.25 µg/mL
C[C@H](NC(=O)CCC(CCC(=O)N[C@@H](C)C(=O)O)(CCC(=O)N[C@@H](C)C(=O)O)NC(=O)CCOCC(COCCC(=O)NC(CCC(=O)N[C@@H](C)C(=O)O)(CCC(=O)N[C@@H](C)C(=O)O)CCC(=O)N[C@H](C)C(=O)O)(COCCC(=O)NC(CCC(=O)N[C@@H](C)C(=O)O)(CCC(=O)N[C@H](C)C(=O)O)CCC(=O)N[C@H](C)C(=O)O)COCCC(=O)NC(CCC(=O)N[C@@H](C)C(=O)O)(CCC(=O)N[C@H](C)C(=O)O)CCC(=O)N[C@H](C)C(=O)O)C(=O)O	NL4-3	-	MTS	-	>100 µM

Again, the opening 8 rows:

structure	strain or isolate	changes	read by	conditions	result
Nc1ccn([C@@H]2CO[C@@H](CO)S2)c(=O)n1	-	-	-	-	>100 µg/mL
[N-]=[N+]=N[C@H]1C[C@@H](N2C(=O)NC(=O)/C2=C/c2ccccc2)O[C@@H]1CO	IIIB	-	ELISA	-	>10 µM
CCN1C[C@H](C)n2c(c(O)c3c(=O)n(Cc4ccc(F)c(Cl)c4)nc(C(=O)NC)c32)C1=O	IIIB	-	-	-	0.003 µM
O=C1CSC(c2c(Cl)cccc2Cl)N1Cc1ccco1	IIIB	-	cytopathic effect	-	0.204 µM
O=c1nc2c(cn1[C@@H]1O[C@H](CO)[C@@H](O)[C@H]1O)CON2	IIIB	-	-	-	>300 µM
CCCc1c(Cc2ccccc2)n(COC/C(C)=C/c2ccccc2)c(=O)[nH]c1=O	IIIB	-	cytopathic effect / MTT	-	0.04 µM
O=c1nc2c(cn1[C@H]1C[C@H](O)[C@@H](CO)O1)CCON2	IIIB	-	-	-	>300 µM
CCN1C[C@H](C)N2C(=C(O)C3C(=O)N4Cc5ccc(F)cc5OCCCC[C@@H](C)S(=O)(=O)N(C)C(=N4)C32)C1=O	LAII(IIIB)	-	-	-	379 µM

Lines come from different laboratories, so protocols vary. An empty or dashed field is not shown. ECn: concentration that inhibits the pathogen or its effect by n%.